Results of unrelated studies side by side (data: NIAID ChemDB).

Common to all: growth or infection tests; species: HIV-1; read by: cytopathic effect / MTT; read-out: EC50

Lines come from different laboratories, so protocols vary. ECn: concentration that inhibits the pathogen or its effect by n%. An empty or dashed field is not shown.

{"structure": "CCCCSc1nc(N)cc(Nc2cccc3ccccc23)n1", "cell line": "MT-4", "strain": "IIIB", "value": ">39 µM"}
{"structure": "CC(=O)Nc1cccc2c1nc(-c1c(F)cccc1F)n2Cc1c(F)cccc1F", "changes": "RT-V106A", "cell line": "MT-4", "value": ">20 µM"}
{"structure": "Nc1nc2c(ncn2[C@H]2CC[C@@H](CO)O2)c(=O)[nH]1", "cell line": "MT-2", "strain": "IIIB", "value": "10 µM"}
{"structure": "CC(C)(C)NC(=O)c1c(CCC(O)Cc2ccc3ccccc3c2C(=O)NC(C)(C)C)ccc2ccccc12", "cell line": "CEM + CEM-SS", "strain": "RF", "value": "11 µM"}
{"structure": "O=c1[nH]cnc2c1ncn2[C@H]1CC[C@@H](CO)O1", "cell line": "MT-4", "strain": "WT", "value": "10 µM"}
{"structure": "CCCCSc1cc(N)nc(Cl)n1", "cell line": "MT-4", "strain": "IIIB", "value": ">114 µM"}
{"structure": "Cc1cn([C@H]2C[C@H](N=[N+]=[N-])[C@@H](CO)O2)c(=O)[nH]c1=O", "cell line": "MT-4", "strain": "NL4 Aco-HSA-resistant", "value": "0.01 µg/mL"}
{"structure": "Cc1c(Sc2ccccc2)n(COCCO)c(=O)[nH]c1=O", "cell line": "MT-4", "strain": "IIIB", "value": "5.06 µM"}
{"structure": "Cc1cn([C@H]2C=C[C@@H](CO)O2)c(=O)[nH]c1=O", "cell line": "MT-4", "strain": "WT", "value": "1.7 µM"}
{"structure": "CCC(C)Oc1cc(N)nc(Sc2ccc(F)cc2)n1", "cell line": "MT-4", "strain": "IIIB", "value": ">67.5 µM"}
{"structure": "CCOC(=O)c1c[nH]cc1S(=O)(=O)c1cc(Cl)ccc1N", "cell line": "MT-4", "strain": "IIIB", "value": "1.3 µM"}
{"structure": "O=c1cc(Sc2ccccc2)nc(Cl)[nH]1", "cell line": "MT-4", "strain": "IIIB", "value": ">200 µM"}
{"structure": "Cc1ccnc2c1NC(=O)c1cccnc1N2C1CC1", "changes": "RT-L100I", "cell line": "MT-4", "value": "0.316 µM"}
{"structure": "Nc1nc(N)c2ncn([C@@H]3CC[C@H](CO)S3)c2n1", "cell line": "MT-2", "strain": "IIIB", "value": ">100 µM"}
{"structure": "CCc1c(C(=O)c2cccc3ccccc23)n(CC=C(C)C)c(=O)[nH]c1=O", "cell line": "MT-4", "strain": "IIIB", "value": "6.6 µM"}
{"structure": "Nc1nc(NC2CC2)c2ncn([C@H]3C=C[C@@H](CO)C3)c2n1", "changes": "HXB2-RTwt", "cell line": "MT-4", "strain": "HXB2", "value": "1.36 µM"}
{"structure": "Fc1cccc(F)c1Cn1c(-c2c(F)cccc2F)nc2c(Br)cccc21", "changes": "RT-V108I", "cell line": "MT-4", "value": "3.2 µM"}
{"structure": "Cc1cn([C@H]2C[C@H](N=[N+]=[N-])[C@@H](CO)O2)c(=O)[nH]c1=O", "changes": "RT-D67N K70R K172R", "cell line": "MT-4", "strain": "IIIB", "value": "0.051 µM"}
{"structure": "CCc1c(C(=O)c2cccc3ccccc23)n(C/C=C/C(=O)OC)c(=O)[nH]c1=O", "cell line": "MT-4", "strain": "IIIB", "value": "0.92 µM"}
{"structure": "CC(=O)N(C)c1cccc2c1nc(-c1c(F)cccc1F)n2Cc1c(F)cccc1F", "changes": "RT-L100I", "cell line": "MT-4", "value": "0.16 µM"}
{"structure": "O=C1Nc2ccc(Cl)cc2S(=O)(=O)c2cn(Cc3c(F)cccc3F)cc21", "cell line": "MT-4", "strain": "IIIB", "value": "40 µM"}
{"structure": "CC(=O)c1ccc(C)cc1NC(C(N)=O)c1c(Cl)cccc1Cl", "cell line": "MT-4", "strain": "HE", "value": "0.037 µM"}
{"structure": "Cc1cn([C@H]2C=C[C@@H](CO)O2)c(=O)[nH]c1=O", "cell line": "MT-4", "strain": "IIIB", "value": "0.27 µM"}
{"structure": "Nc1nc(N)c2ncn([C@H]3CC[C@H](CO)O3)c2n1", "cell line": "MT-2", "strain": "IIIB", "value": ">100 µM"}
{"structure": "CCC(C)Oc1cc(N)nc(S(=O)(=O)c2cccc(OC)c2)n1", "cell line": "MT-4", "strain": "IIIB", "value": ">99.5 µM"}
{"structure": "Nc1nc2c(ncn2[C@@H]2CC[C@H](CO)O2)c(=O)[nH]1", "cell line": "MT-2", "strain": "IIIB", "value": ">100 µM"}
{"structure": "Nc1ccn([C@H]2CC[C@@H](CO)O2)c(=O)n1", "cell line": "C8166", "strain": "CC", "value": "1.54 µM"}
{"structure": "C1CNCCNCC(CCOCCOCCC2CNCCNCCCNCCNC2)CNCCNC1", "setting": "5 d", "cell line": "MT-4", "strain": "MN", "value": "6.3 µM"}
{"structure": "Nc1cccc2c1nc(-c1c(F)cccc1F)n2Cc1c(F)cccc1F", "changes": "RT-L74V", "cell line": "MT-4", "value": "0.3 µM"}
{"structure": "CCOC(=O)Cn1c(C(=O)c2cccc3ccccc23)c(C(C)C)c(=O)[nH]c1=O", "cell line": "MT-4", "strain": "IIIB", "value": "1.42 µM"}
{"structure": "CCC(C)Oc1cc(=O)[nH]c(Sc2ccc(Cl)cc2)n1", "cell line": "MT-4", "strain": "IIIB", "value": "106 µM"}
{"structure": "C=C(/C=C/P(=O)(O)O)Cn1cnc2c(=O)[nH]c(N)nc21", "cell line": "MT-4", "strain": "RF", "value": ">100 µM"}
{"structure": "CCOC(=O)c1cn(CC=C(C)C)cc1S(=O)(=O)c1cc(Cl)ccc1N", "cell line": "MT-4", "strain": "IIIB", "value": "10 µM"}
{"structure": "Cn1cc(C(=O)O)c(=O)c2cc(F)c(N3CC=C(c4ccccc4)CC3)c(C(F)(F)F)c21", "cell line": "MOLT-4", "strain": "IIIB", "value": "0.05 µM"}
{"structure": "CCCc1c(C)[nH]c(=O)c(N(C)C)c1Cc1cc(C)cc(C)c1", "changes": "RT-Y181C", "cell line": "MT-4", "strain": "Recombinant", "value": "100 µM"}
{"structure": "CN1CCN(C2=Nc3cc(O)ccc3Nc3ccccc32)CC1", "cell line": "CEM-T4 + CEM", "strain": "IIIB", "value": "37 µg/mL"}
{"structure": "CCCN(C)C(=O)Oc1nsnc1-c1c(Cl)ccc(N)c1Cl", "cell line": "MOLT-4", "strain": "IIIB", "value": "0.013 µM"}
{"structure": "Cc1cn([C@@H]2C=C[C@H](COC(=O)OC[C@H]3O[C@@H](n4cc(C)c(=O)[nH]c4=O)C[C@@H]3N=[N+]=[N-])O2)c(=O)[nH]c1=O", "cell line": "MT-4", "strain": "IIIB", "value": "0.0063 µM"}
{"structure": "CC(C)=CCn1cc2c(c1)S(=O)(=O)c1cc(Cl)ccc1NC2=O", "changes": "RT-K103N", "cell line": "C8166", "strain": "Clinical isolate", "value": "≥30 µM"}
{"structure": "C#CCn1c(C(=O)c2cccc3ccccc23)c(C(C)C)c(=O)[nH]c1=O", "cell line": "MT-4", "strain": "IIIB", "value": "≥1.21 µM"}
{"structure": "C1CNCCNCC(CCCC2CNCCNCCCNCCNC2)CNCCNC1", "setting": "5 d", "cell line": "MT-4", "strain": "MN", "value": "0.35 µM"}
{"structure": "CCOC(=O)c1cn(C)cc1S(=O)(=O)c1cc(Cl)ccc1N", "changes": "RT-Y181C", "cell line": "MT-4", "strain": "Clinical isolate", "value": "≥30 µM"}
{"structure": "CC(C)c1c(C(=O)c2cccc3ccccc23)n(C/C=C/c2ccccc2)c(=O)n(C/C=C/c2ccccc2)c1=O", "cell line": "MT-4", "strain": "IIIB", "value": ">129 µM"}
{"structure": "CC(C)=NOC(=O)OC[C@H]1O[C@@H](n2cc(C)c(=O)[nH]c2=O)C[C@@H]1N=[N+]=[N-]", "cell line": "MT-4", "strain": "IIIB", "value": "0.029 µM"}
{"structure": "CCCCSc1nc(N)cc(Sc2ccccc2)n1", "cell line": "MT-4", "strain": "IIIB", "value": "37 µM"}
{"structure": "Fc1cccc(F)c1C1SCc2nc3ccccc3n21", "changes": "RT-E138K", "cell line": "CEM", "strain": "TSAO-resistant (RT E138K)", "value": "1.73 µM"}
{"structure": "N#Cc1ccc(Nc2nc(Cc3c(Cl)cccc3Cl)nc(NOCC(=O)N3CCOCC3)n2)cc1", "cell line": "MT-4", "value": "0.01585 µM"}
{"structure": "CCc1c(Sc2cc(C)cc(C)c2)n(COCCOP(=O)(O)OC[C@H]2O[C@@H](n3cc(C)c(=O)[nH]c3=O)C[C@@H]2N=[N+]=[N-])c(=O)[nH]c1=O", "changes": "RT-Y181C", "cell line": "MT-4", "strain": "IIIB MKC-442-resistant (RT Y181C)", "value": "0.002 µM"}
{"structure": "Fc1cccc(Cl)c1C1OCc2nc3ccccc3n21", "cell line": "MT-4", "strain": "IIIB", "value": "6.07 µM"}
{"structure": "C1CNCCNCC(CCC2CNCCNCCCNCCNC2)CNCCNC1", "setting": "4 d", "cell line": "MT-4", "strain": "IIIB", "value": "0.13 µM"}
{"structure": "Cc1cn([C@H]2C=C[C@@H](COC(=O)NCCSC(=O)OC[C@@H]3CC[C@H](n4cnc5c(=O)[nH]cnc54)O3)O2)c(=O)[nH]c1=O", "changes": "RT-K103R V179D P225H", "cell line": "MT-4", "strain": "EFV-resistant (RT K103R V179D P225H)", "value": ">20 µM"}
{"structure": "CN1CCN(C2=Nc3cc(Cl)ccc3Nc3ccccc32)CC1", "cell line": "CEM-T4 + CEM", "strain": "IIIB", "value": ">21 µg/mL"}
{"structure": "C[C@H](Cn1cnc2c(N)ncnc21)OCP(=O)(O)O", "changes": "RD 23-RTwt", "cell line": "MT-4", "value": "0.84 µM"}
{"structure": "Cc1nc2n(c(=O)c1CCN1CCC(c3noc4cc(F)ccc34)CC1)CCCC2", "cell line": "CEM-T4 + CEM", "strain": "IIIB", "value": ">107 µg/mL"}
{"structure": "Cc1ccnc2c1NC(=O)c1cccnc1N2C1CC1", "changes": "RT-V106A", "cell line": "MT-4", "strain": "Recombinant", "value": "5.012 µM"}
{"structure": "Nc1nc(Cl)nc2c1ncn2[C@H]1CC[C@H](CO)O1", "cell line": "MT-2", "strain": "IIIB", "value": ">100 µM"}
{"structure": "CC(C)[C@H](NC(=O)N(C)Cc1ccccn1)C(=O)N[C@@H](Cc1ccccc1)[C@H](O)[C@@H](O)[C@H](Cc1ccccc1)NC(=O)[C@@H](NC(=O)N(C)Cc1ccccn1)C(C)C", "cell line": "MT-4", "strain": "IIIB", "value": "0.17 µM"}
{"structure": "C(CCC1CNCCNCCCNCCNC1)CCC1CNCCNCCCNCCNC1", "setting": "5 d", "cell line": "MT-4", "strain": "RF", "value": "0.35 µM"}
{"structure": "Clc1ccc2c(c1)N=C(N1CCNCC1)c1ccccc1N2", "cell line": "CEM-T4 + CEM", "strain": "IIIB", "value": ">11 µg/mL"}
{"structure": "CN(C)c1cccc2c1nc(-c1c(F)cccc1F)n2Cc1c(F)cccc1F", "changes": "RT-V108I", "cell line": "MT-4", "value": "3.2 µM"}
{"structure": "Cc1cn([C@@H]2C=C[C@H](COC(=O)NCCCCNC(=O)OC[C@@H]3C=C[C@H](n4cc(C)c(=O)[nH]c4=O)O3)O2)c(=O)[nH]c1=O", "cell line": "MT-4", "strain": "IIIB", "value": "26 µM"}
{"structure": "O=c1[nH]cnc2c1ncn2[C@H]1CC[C@@H](CO)O1", "cell line": "MT-4", "strain": "RF", "value": "13 µM"}
{"structure": "CCCN(C)C(=O)Oc1nsnc1-c1c(Cl)ccc([N+](=O)[O-])c1Cl", "cell line": "MT-4", "strain": "IIIB", "value": "0.026 µM"}
{"structure": "CCC(C)Oc1cc(=O)[nH]c(S(=O)(=O)c2ccccc2)n1", "cell line": "MT-4", "strain": "IIIB", "value": ">109 µM"}
{"structure": "CCc1c(C(=O)c2cccc3ccccc23)n(COCCOC)c(=O)[nH]c1=O", "cell line": "MT-4", "strain": "IIIB", "value": "5.71 µM"}
{"structure": "CCCN(C)C(=O)Oc1nsnc1-c1c(Cl)cccc1Cl", "cell line": "MT-4", "strain": "IIIB", "value": "0.0125 µM"}
{"structure": "CCc1c(Sc2cc(C)cc(C)c2)n(COCCO)c(=O)[nH]c1=O", "changes": "RT-Y181C", "cell line": "MT-4", "strain": "IIIB MKC-442-resistant (RT Y181C)", "value": "2.4 µM"}

A second listing of 5 rows from above:

| structure | changes | setting | cell line | strain | value |
|---|---|---|---|---|---|
| Nc1nc(NC2CC2)c2ncn([C@H]3C=C[C@@H](CO)C3)c2n1 | HXB2-RTwt | - | MT-4 | HXB2 | 1.36 µM |
| CCCCSc1cc(N)nc(Cl)n1 | - | - | MT-4 | IIIB | >114 µM |
| CCOC(=O)Cn1c(C(=O)c2cccc3ccccc23)c(C(C)C)c(=O)[nH]c1=O | - | - | MT-4 | IIIB | 1.42 µM |
| CCc1c(Sc2cc(C)cc(C)c2)n(COCCO)c(=O)[nH]c1=O | RT-Y181C | - | MT-4 | IIIB MKC-442-resistant (RT Y181C) | 2.4 µM |
| O=c1cc(Sc2ccccc2)nc(Cl)[nH]1 | - | - | MT-4 | IIIB | >200 µM |